# Patent publication US20020055094A1 (priority 1996, published 2002)
# By UniProt entry, the sequences of proteins in these tests, tags left out.
# UniProt P06820, whole entry, looked up: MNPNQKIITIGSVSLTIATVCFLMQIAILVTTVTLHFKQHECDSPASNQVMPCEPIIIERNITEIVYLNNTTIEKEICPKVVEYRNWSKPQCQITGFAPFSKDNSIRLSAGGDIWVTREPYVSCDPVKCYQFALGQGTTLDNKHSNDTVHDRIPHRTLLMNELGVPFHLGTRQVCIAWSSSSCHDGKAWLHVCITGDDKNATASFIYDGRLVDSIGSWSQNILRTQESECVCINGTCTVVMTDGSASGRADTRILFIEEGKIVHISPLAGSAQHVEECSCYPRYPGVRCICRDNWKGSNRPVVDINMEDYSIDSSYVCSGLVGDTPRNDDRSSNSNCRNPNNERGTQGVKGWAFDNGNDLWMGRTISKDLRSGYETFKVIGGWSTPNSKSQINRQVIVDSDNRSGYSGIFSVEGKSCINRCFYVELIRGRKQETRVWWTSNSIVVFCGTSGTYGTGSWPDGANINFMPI
# UniProt P27907, whole entry, looked up: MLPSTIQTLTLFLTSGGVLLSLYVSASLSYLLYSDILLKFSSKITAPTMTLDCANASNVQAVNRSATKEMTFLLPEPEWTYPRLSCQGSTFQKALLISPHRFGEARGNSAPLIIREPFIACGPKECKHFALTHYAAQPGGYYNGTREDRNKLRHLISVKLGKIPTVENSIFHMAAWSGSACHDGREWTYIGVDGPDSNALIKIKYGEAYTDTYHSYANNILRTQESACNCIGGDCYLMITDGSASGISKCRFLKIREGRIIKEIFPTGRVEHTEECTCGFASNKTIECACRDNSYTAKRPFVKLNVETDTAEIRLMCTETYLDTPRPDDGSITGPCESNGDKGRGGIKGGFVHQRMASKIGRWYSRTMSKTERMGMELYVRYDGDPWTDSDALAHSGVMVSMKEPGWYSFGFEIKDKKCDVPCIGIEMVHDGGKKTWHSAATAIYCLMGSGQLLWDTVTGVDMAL
# Key:
# [1] = molecular target: whole virus influenza neuraminidase, influenza A strain NWS/Tokyo (Influenza A virus, UniProt P06820); format: biochemical; conditions: read-out: Binding Constants (M) / inhibition constants (IC50), NWS/Tokyo
# [2] = molecular target: whole virus influenza neuraminidase, influenza B strain B/Vic/02/87 (Influenza B virus, UniProt P27907); format: biochemical; conditions: read-out: Binding Constants (M) / inhibition constants (IC50), B/Vic/02/87
substance,measurement,setting,value
"5-acetamido-7-{6′-[6″-(6″′-biotinylaminocaproyl) -tri-amingcaroyl]-aminohexyl}-carbamoyloxy-4-guanidino -2,3,4,5-tetradeoxy-D-glycero-D-gaacto-non-2-enopyranosonic acid [Compound No. 26]",IC50,[1],2e-08 M
DANA [reference compound],IC50,[2],2e-05 M
